We go through one sequence from article PMC11907795.

Data set [1] has as its system PthA5-His (Xanthomonas citri subsp. citri strain Xcc086). Nature of the data set: EMSA. As to conditions: poly dI-dC, unlabeled competitor 1x-800x; EMSA Binding Buffer (composition, salt and pH not stated) with poly dI-dC, 25 °C 25 min; 10% native PAGE at 4 °C, 100 V, 1.5 h; recombinant protein; protein details: His (N-terminal, pET28a); label: Cy5. (In EMSA bound probe runs differently from free probe, usually more slowly.)

Data set [2] concerns PthA6-His (Xanthomonas citri subsp. citri strain Xcc003). Nature of the data set: EMSA. The settings on record: poly dI-dC, unlabeled competitor 1x-800x; EMSA Binding Buffer (composition, salt and pH not stated) with poly dI-dC, 25 °C 25 min; 10% native PAGE at 4 °C, 100 V, 1.5 h; recombinant protein; protein details: His (N-terminal, pET28a); label: Cy5.

The exact form of at least one protein or probe is not confirmed.

Regarding “TATATACATACACACACACACACACACACATAT (double strand) [ProCsGRAS9]”, the binding result in data set [1] and in data set [2] was “binds” throughout.
